# According to patent US8809343B2, “Pyrimidine derivative, preparation method and use thereof” (Fudan University, priority 2008, dated 2014):
# System: HIV-1 IIIB strain
# Assay: Anti-HIV activity: protection of HIV-infected MT-4 cells from virus-induced cell lesions
# Assay type: cell-based
# Procedure: Anti-virus activity of cells in vitro was determined by Rega Institute for Medical of […] Katholleke University, consisting mainly: inhibitory activity towards HIV-infected MT-4 cells and cell toxicity. The method is described below: exert the compound on the HIV-infected ME-4 cells, and determine the protection of the drug on the cell lesions induced by HIV at varied HIV-infection intervals, calculate the half effective concentration IC50, the required concentration that protect 50% of cells from cell lesions induced by HIV. Toxicity determination is carried out in parallel with anti-HIV activity experiments, also in the cultured MT-4 cells, determine the CC50, the concentration that leads 50% of uninfected cells to cell lesions, and calculate the selectivity index SI=CC50/IC50 with the MTT method.
# Anti-HIV activity of various compounds is monitored by the inhibitory efficiency of drugs on the cell lesions induced by HIV. Carry out cell culture with MT-4 cells. The adopted virus strains are HIV-1 IIIB strain and drug-resistant viral strain of […].
# The detailed operation is as follows: the compound is dissolved with DMSO or water and diluted with phosphate buffer saline, 3×10^5 MT-4 cells are cultured with 100 μL various concentrations of compounds for 1 h, then 100 μL suitable virus dilution is added to the compound, and the cells are cultured at 37° C. for 1 h. After being washed for 3 times, the cells are suspended again in the culture media containing or not compounds individually. Subsequently, the cells are transferred to the atmosphere containing 5% CO2 and cultured for 7 days at 37° C., and culture media containing or not compounds are used to replace or supplement the culture solution on the third day after infection. Kinds of culture conditions should be duplicated. The cell lesions caused by virus are monitored with reverse light microscopy everyday. Typically, the virus dilution applied in the present experiments generally cause cell lesion on the fifth day after infection. […] It should be emphasized that, when the compound is poorly water-soluble and can only be dissolved in DMSO, the ratio of DMSO to water is generally below 10% (the final concentration of DMSO in MT-4 cell culture media is smaller than 2%). Because DMSO can influence the anti-virus activity of the tested compounds, blank tests on the solution containing the same concentration of DMSO should be conducted in parallel. Additionally, the final concentration of DMSO is far below the concentration required to influence the replication of HIV-1 in T cells.
Compound,"SI (Selectivity index, the ratio of CC50/IC50) (Table 1)","SI (Selectivity index, the ratio of CC50/IC50) (Table 3)"
Cc1cnc(Nc2ccc(C#N)cc2)nc1Oc1cccc2cccnc12 [Compound 5],3432,
Cc1c(Cl)nc(Nc2ccc(C#N)cc2)nc1Oc1cccc2cccnc12 [Compound 6],1740,
CNc1nc(Nc2ccc(C#N)cc2)nc(Oc2cccc3cccnc23)c1C [Compound 7],2312,
COc1nc(Nc2ccc(C#N)cc2)nc(Oc2cccc3cccnc23)c1C [Compound 8],1787,
CC(C)c1c(Cl)nc(Nc2ccc(C#N)cc2)nc1Oc1ccc2cc(C#N)ccc2c1 [Compound 9],8711,
Cc1c(Oc2ccnc(Nc3ccc(C#N)cc3)n2)ccc2ccccc12 [Compound 10],32981,
Cc1cc2ccccc2cc1Oc1ccnc(Nc2ccc(C#N)cc2)n1 [Compound 11],30941,
Cc1cc2ccccc2c(C)c1Oc1ccnc(Nc2ccc(C#N)cc2)n1 [Compound 12],76436,
N#Cc1ccc(Nc2nccc(Oc3ccc4cc(Br)ccc4c3Br)n2)cc1 [Compound 13],11099,
N#Cc1ccc(Nc2nccc(Oc3ccc4cc(C#N)ccc4c3)n2)cc1 [Compound 14],20548,
N#Cc1ccc(Nc2nccc(Oc3ccc4cc(C#N)ccc4c3Br)n2)cc1 [Compound 15],181247,
N#Cc1ccc(Nc2nccc(Oc3cc4ccc(C#N)cc4cc3Br)n2)cc1 [Compound 16],50357,
CNc1nc(Nc2ccc(C#N)cc2)nc(Oc2ccc3ccccc3c2Br)c1C [Compound 17],11494,
CCc1c(NC)nc(Nc2ccc(C#N)cc2)nc1Oc1ccc2cc(C#N)ccc2c1Br [Compound 18],49020,
CNc1nc(Nc2ccc(C#N)cc2)nc(Oc2ccc3cc(C#N)ccc3c2)c1C(C)C [Compound 19],34868,
Cc1cc(C#N)ccc1Oc1nc(Nc2ccc(C#N)cc2)nc2ccccc12 [Compound 33],,>11893
N#Cc1ccc(Nc2nc(Oc3c(Br)cc(Br)cc3Br)c3ccccc3n2)cc1 [Compound 34],,3087
Cc1cc(Br)c(Oc2nc(Nc3ccc(C#N)cc3)nc3ccccc23)c(Br)c1 [Compound 35],,1563
Cc1cc(C)c(Oc2nc(Nc3ccc(C#N)cc3)nc3ccccc23)c(C)c1 [Compound 36],,>1484

Compound,"SI (Selectivity index, the ratio of CC50/IC50) (Table 1)","SI (Selectivity index, the ratio of CC50/IC50) (Table 3)"
N#Cc1ccc(Nc2nc(Oc3ccc(Cl)cc3Cl)c3ccccc3n2)cc1 [Compound 37],,4068
N#Cc1ccc(Nc2nc(Oc3ccc(F)cc3)c3ccccc3n2)cc1 [Compound 38],,1987
N#Cc1ccc(Nc2nc(Oc3ccccc3Cl)c3ccccc3n2)cc1 [Compound 39],,6018
N#Cc1ccc(Nc2nc(Oc3ccc(Cl)cc3)c3ccccc3n2)cc1 [Compound 40],,>2369
COc1cc(C#N)cc(OC)c1Oc1nc(Nc2ccc(C#N)cc2)nc2ccccc12 [Compound 41],,>42311
N#Cc1ccc(Nc2nc(Oc3c(Cl)cc(Cl)cc3Cl)c3ccccc3n2)cc1 [Compound 42],,69833
Cc1cccc(C)c1Oc1nc(Nc2ccc(C#N)cc2)nc2ccccc12 [Compound 43],,>13902
N#Cc1ccc(Nc2nc(Sc3ccccc3)c3ccccc3n2)cc1 [Compound 44],,657
Cc1cc(C#N)cc(C)c1Oc1nc(Nc2ccc(C#N)cc2)nc2ccccc12 [Compound 45],,>47832
CCOc1cc(C#N)cc(OCC)c1Oc1nc(Nc2ccc(C#N)cc2)nc2ccccc12 [Compound 46],,>34239
CCCOc1cc(C#N)cc(OCC)c1Oc1nc(Nc2ccc(C#N)cc2)nc2ccccc12 [Compound 47],,>20842
COc1cc(C#N)cc(Cl)c1Oc1nc(Nc2ccc(C#N)cc2)nc2ccccc12 [Compound 48],,>30899
CCOc1cc(C#N)cc(Cl)c1Oc1nc(Nc2ccc(C#N)cc2)nc2ccccc12 [Compound 49],,>10692
COc1cc(C#N)cc(OC(C)C)c1Oc1nc(Nc2ccc(C#N)cc2)nc2ccccc12 [Compound 50],,>9823
N#Cc1ccc(Nc2nc(S(=O)(=O)c3ccccc3)c3ccccc3n2)cc1 [Compound 51],,>365
CCOc1cc(C#N)cc(OC)c1Oc1nc(Nc2ccc(C#N)cc2)nc2ccccc12 [Compound 52],,>50129
Cc1cc(C)c(Oc2nc(Nc3ccc(C#N)cc3)nc3ccc(Cl)cc23)c(C)c1 [Compound 54],,81672
"Cc1cn([C@H]2C[C@H](N=[N+]=[N-])[C@@H](CO)O2)c(=O)[nH]c1=O [DDN/AZT, reference compound]",,>18094
